{"source": "PubChem BioAssay AID624099 – ICCB-Longwood | 2012", "aim": "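Human genes that papillomavirus E2 requires to repress the HPV18 LCR promoter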 (primary screen)", "cell system": "human C33A cervical carcinoma cells (HPV-negative) stably expressing BPV1 E2 and an HPV18 LCR luciferase reporter", "knock-down reagent": "siRNA pool against human genes, 40 nM", "time to read-out": "72 h", "detection": "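Per-well luciferase luminescence, z-scored on each plate against the plate mean and SD with control wells left out, then averaged across three replicate plates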", "reading the numbers": "mean z-score and z-score: higher = stronger reporter signal, weaker E2 silencing", "rule for the call": "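Mean z ≥ 2 together with z ≥ 2 in two or more of the three replicates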", "note": "In all, the deposit lists about 21,000 reagents; below is a part drawn at random. 497 of all reagents (2.4%) count as active. 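Higher z means weaker E2 silencing; only reporter increases were scored, and knock-downs that hurt cell survival may mask genuine repressor factors.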 The numbers tell different reagents against one gene apart. No sequences are given here."}
{"target": "CDK13 (cyclin dependent kinase 13)", "reagent no.": 1, "mean z-score": -0.67, "z-score, replicate A": -1.34, "z-score, replicate B": -0.25, "z-score, replicate C": -0.41, "Call": "inactive"}
{"target": "AMBN (ameloblastin)", "reagent no.": 1, "mean z-score": -0.65, "z-score, replicate A": -0.88, "z-score, replicate B": -0.67, "z-score, replicate C": -0.4, "Call": "inactive"}
{"target": "NHLRC2 (NHL repeat containing 2)", "reagent no.": 1, "mean z-score": -0.71, "z-score, replicate A": -0.72, "z-score, replicate B": -0.9, "z-score, replicate C": -0.51, "Call": "inactive"}
{"target": "OBSCN", "reagent no.": 1, "mean z-score": 0.28, "z-score, replicate A": 0.36, "z-score, replicate B": 0.15, "z-score, replicate C": 0.33, "Call": "inactive"}
{"target": "OBSCN", "reagent no.": 2, "mean z-score": -0.56, "z-score, replicate A": -0.91, "z-score, replicate B": -0.6, "z-score, replicate C": -0.16, "Call": "inactive"}
{"target": "OBSCN", "reagent no.": 3, "mean z-score": -0.12, "z-score, replicate A": -0.11, "z-score, replicate B": -0.17, "z-score, replicate C": -0.09, "Call": "inactive"}
{"target": "LOC392670 (retired record)", "reagent no.": 1, "mean z-score": -0.52, "z-score, replicate A": -0.58, "z-score, replicate B": -0.64, "z-score, replicate C": -0.35, "Call": "inactive"}

2 entries from above, reformatted:
OBSCN #3
- mean z-score: -0.12
- z-score, replicate A: -0.11
- z-score, replicate B: -0.17
- z-score, replicate C: -0.09
- Call: inactive

LOC392670 (retired record)
- mean z-score: -0.52
- z-score, replicate A: -0.58
- z-score, replicate B: -0.64
- z-score, replicate C: -0.35
- Call: inactive

Continued:
{"target": "SERTM1 (serine rich and transmembrane domain containing 1)", "reagent no.": 1, "mean z-score": 0.65, "z-score, replicate A": 0.43, "z-score, replicate B": 0.82, "z-score, replicate C": 0.71, "Call": "inactive"}
{"target": "HPCAL4 (hippocalcin like 4)", "reagent no.": 1, "mean z-score": -1.05, "z-score, replicate A": -0.47, "z-score, replicate B": -1.17, "z-score, replicate C": -1.52, "Call": "inactive"}
{"target": "LOC730011 (retired record)", "reagent no.": 1, "mean z-score": -4.17, "z-score, replicate A": -3.96, "z-score, replicate B": -4.27, "z-score, replicate C": -4.29, "Call": "inactive"}
{"target": "LOC400340 (retired record)", "reagent no.": 1, "mean z-score": -0.14, "z-score, replicate A": -0.27, "z-score, replicate B": -0.74, "z-score, replicate C": 0.58, "Call": "inactive"}
{"target": "ARMCX5 (armadillo repeat containing X-linked 5)", "reagent no.": 1, "mean z-score": -0.49, "z-score, replicate A": -0.23, "z-score, replicate B": -0.79, "z-score, replicate C": -0.46, "Call": "inactive"}
{"target": "EPHA7 (EPH receptor A7)", "reagent no.": 1, "mean z-score": 0.09, "z-score, replicate A": 0.44, "z-score, replicate B": 0.2, "z-score, replicate C": -0.37, "Call": "inactive"}
{"target": "AUH (AU RNA binding methylglutaconyl-CoA hydratase)", "reagent no.": 1, "mean z-score": -0.28, "z-score, replicate A": -0.06, "z-score, replicate B": -0.47, "z-score, replicate C": -0.31, "Call": "inactive"}
